Pooled drug test results. Numbers come from NIAID ChemDB, via PubChem.

All rows: whole-cell or culture tests; organism: Herpes simplex virus 2; cell line: E6SM; read by: cytopathic effect; measure: EC50

ECn is the concentration giving n% inhibition of infection, replication or growth. Conditions beyond the fields shown may differ between rows.

compound	strain	value
O[C@@H]1[C@@H](OCc2ccccc2)[C@@H](COCc2ccccc2)O[C@H]1n1cnc2cc(Cl)c(Cl)cc21	G	>10 µg/mL
Nc1nccc2c1ncn2[C@@H]1C[C@H](CO)[C@@H](O)[C@H]1O	G	200 µg/mL
O=c1[nH]c(=O)n([C@H]2C[C@H](O)[C@@H](CO)O2)cc1C1CCCCC1	G 196 LYONS	>1200 µM
O[C@H]1[C@@H](O)COC(n2cnc3cc(Cl)c(Cl)cc32)[C@@H]1O	G	>400 µg/mL
Nc1nc2c(ncn2COCCOP2(=O)OCc3ccccc3O2)c(=O)[nH]1	G	0.26 µg/mL
O=C(O)c1cc(O)ccc1O	G	20 µg/mL
C[C@@H]1CC[C@H]2[C@@H](C)C(=O)O[C@@H]3OC4(C)CC[C@@H]1[C@]32OO4	G	240 µg/mL
Nc1nc2c(ncn2[C@H]2C=C[C@@H](CO)C2)c(=O)[nH]1	G	1.3 µg/mL
Cc1c(CC(=O)O)ccc(O)c1O	G	40 µg/mL
O=c1ccn([C@H]2C[C@H](O)[C@@H](CO)O2)c(=O)[nH]1	G 196 LYONS	>200 µM
Nc1nc(NC2CC2)c2ncn([C@H]3C=C[C@@H](COP4(=O)OCc5ccccc5O4)C3)c2n1	G	7.2 µg/mL
CC(C)[Si]1(C(C)C)OC[C@H]2O[C@@H](n3cnc4cc(Cl)c(Cl)cc43)[C@H](O)[C@H]2O[Si](C(C)C)(C(C)C)O1	G	>10 µg/mL
O=c1[nH]c(=O)n([C@H]2C[C@H](O)[C@@H](CO)S2)cc1C1CCCC1	G 196 LYONS	676 µM
Nc1nc(Cl)c2nnn(C[C@H]3CC[C@@H](CO)C3)c2n1	G	>200 µg/mL
OCCOC(CCO)n1cnc2cc(Cl)c(Cl)cc21	G	>100 µg/mL
O=C(O)Cc1ccc(O)c(O)c1	G	9 µg/mL
O=c1[nH]c(=O)n([C@H]2C[C@H](O)[C@@H](CO)O2)cc1/C=C/Br	G	200 µg/mL
O=c1ccn([C@H]2C[C@H](O)[C@@H](CO)S2)c(=O)[nH]1	G 196 LYONS	96 µM
Nc1nc(N)c2nnn(C[C@H]3CC[C@@H](CO)C3)c2n1	G	>400 µg/mL
O=c1[nH]c(=O)n([C@H]2C[C@H](O)[C@@H](CO)S2)cc1C1CC1	G 196 LYONS	2.6 µM
Cc1cccc2c1OP(=O)(OC[C@@H]1C=C[C@H](n3cnc4c(NC5CC5)nc(N)nc43)C1)OC2	G	5.6 µg/mL
O=c1[nH]c(=O)n([C@H]2C[C@H](O)[C@@H](CO)O2)cc1/C=C/Br	G	240 µg/mL
CCCc1cn([C@H]2C[C@H](O)[C@@H](CO)S2)c(=O)[nH]c1=O	G 196 LYONS	0.151 µM
Cc1ccc2c(c1)COP(=O)(OCCOCn1cnc3c(=O)[nH]c(N)nc31)O2	G	0.26 µg/mL
Oc1cccc(O)c1O	G	15 µg/mL
OCCOC([C@H](O)CO)n1cnc2cc(Cl)c(Cl)cc21	G	>400 µg/mL
Cc1cn([C@H]2C[C@H](O)[C@@H](CO)S2)c(=O)[nH]c1=O	G 196 LYONS	0.036 µM

Repeating the final 2 entries:

compound | strain | value
OCCOC([C@H](O)CO)n1cnc2cc(Cl)c(Cl)cc21 | G | >400 µg/mL
Cc1cn([C@H]2C[C@H](O)[C@@H](CO)S2)c(=O)[nH]c1=O | G 196 LYONS | 0.036 µM